# In ChEMBL document CHEMBL4342421, “Current scenario of tetrazole hybrids for antibacterial activity” (Eur J Med Chem, 2019):
# What was measured:
# Escherichia coli = assay: Synergistic antibacterial activity against Escherichia coli in presence of Trimethoprim
# Staphylococcus aureus = assay: Synergistic antibacterial activity against Staphylococcus aureus in presence of Trimethoprim
compound,measurement,setting,value
c1cc(-c2nn[nH]n2)ccc1-c1nn[nH]n1,MIC,Escherichia coli,0.98 µg/mL
same,MIC,Staphylococcus aureus,31.3 µg/mL
